In PubChem BioAssay AID588335 (The Scripps Research Institute Molecular Screening Center, 2011):
The list shows a part of the results, in another mix than the full data. Some structures show a salt or complex split into parts, the way the source records it. Active and inactive are the calls of the source. No stated cut-off is given here; in the data, active means inhibition above about 30%; inactive means the rest.

Assay: GDH-TPI coupling enzyme inhibitors, primary screen, artefact control for M. tuberculosis FBA inhibitor project, biochemical, absorbance, full deck (AID 588335);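 further: 0% = DMSO wells and 100% = wells lacking the enzyme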
Conditions: GDH-TPI coupled enzyme counterscreen, NADH absorbance; at 4.8 µM; active compounds read high

Compound | inhibition
CP(=O)(Nc1ccccn1)Oc1ccccc1 (configuration not stated) | inactive: 9.7%
O=[N+]([O-])c1cc([N+](=O)[O-])c(Nc2ccccn2)c([N+](=O)[O-])c1 | inactive: -2.24%
Cc1c(NP(C)(=O)Oc2ccc(C(C)C)cc2)c(=O)n(-c2ccccc2)n1C (configuration not stated) | inactive: -1.56%
CN(C)CCOC(=O)C(O)(c1ccccc1)C1CCCC1 (configuration not stated) | inactive: 1.67%
COc1ccc(OP(C)(=O)Nc2ccccn2)cc1 (configuration not stated) | inactive: 1.85%
COc1ccccc1OP(C)(=O)Nc1ccc(Br)cc1 (configuration not stated) | inactive: 6.22%
CP(=O)(OCCOc1ccccc1)OCCOc1ccccc1 | inactive: -3.92%
CP(=O)(Nc1ccc(Cl)cc1Cl)Oc1ccccc1 (configuration not stated) | inactive: 3.75%
CCCCCCCCCCCCCCCC1C[N+](C)(C)CCOP(C)(=O)O1 (configuration not stated) | inactive: 14.7%
COc1ccc(OP(C)(=O)Nc2ccccc2Br)cc1 (configuration not stated) | inactive: -1.1%
COc1ccccc1OP(C)(=O)Nc1ccc(C)c(C)c1 (configuration not stated) | inactive: 4.5%
Cc1cc(C)cc(OP(C)(=O)Nc2cccc(C(F)(F)F)c2)c1 (configuration not stated) | inactive: 0%
O=C1C(O)=C([N+](=O)[O-])C(=O)C(O)=C1[N+](=O)[O-] | inactive: -2.16%
O=[N+]([O-])c1cc([N+](=O)[O-])c(OC2CCCCC2O)c([N+](=O)[O-])c1 (configuration not stated) | active: 36.1%
CCCCCOc1ccc(NP(C)(=O)Oc2ccc(Cl)cc2Cl)cc1 (configuration not stated) | inactive: -2.07%
CP(=O)(Nc1ccccc1)Oc1ccc(F)cc1 (configuration not stated) | inactive: 3.53%
CCN(CC)CCCOC(=O)C(O)(c1ccccc1)C1CCCCC1 (configuration not stated) | inactive: -2.78%
Cc1c([N+](=O)[O-])cc([N+](=O)[O-])c(Br)c1[N+](=O)[O-] | inactive: 24.6%
COc1ccc(OP(C)(=O)Nc2ccc(SC(F)(F)F)cc2)cc1 (configuration not stated) | inactive: -10.4%

Compound | inhibition
CCOC(=O)c1ccc(NP(C)(=O)Oc2ccc(F)cc2)cc1 (configuration not stated) | inactive: 16.1%
COc1ccc2c(c1O)-c1c(O)c(OC)cc3c1[C@H](C2)[N+](C)(C)CC3.O=[N+]([O-])c1cc([N+](=O)[O-])c([O-])c([N+](=O)[O-])c1[O-] | inactive: 24.9%
O=C(OCCN1CCN(CCOCc2ccccc2)CC1)C(O)(c1ccccc1)c1ccccc1 | inactive: 4.94%
O=C(OC1CN2CCC1CC2)c1ccc([N+](=O)[O-])cc1 (configuration not stated) | inactive: 8.03%
CC(C)c1ccc(OP(C)(=O)Nc2ccc(SC(F)(F)F)cc2)cc1 (configuration not stated) | inactive: 0%
CP(=O)(Nc1ccccc1F)Oc1ccccc1 (configuration not stated) | inactive: 1.22%
O=[N+]([O-])c1cc([N+](=O)[O-])c(Nc2ccc(Cl)cc2)c([N+](=O)[O-])c1 | inactive: 24.8%
Cc1ccccc1NP(C)(=O)Nc1ccccc1C | inactive: -2.24%
CP(=O)(Nc1ccc2c(c1)OCCO2)Oc1ccccc1 (configuration not stated) | inactive: -5.93%
CCOP(C)(=S)SCC(=O)NC(C)(CC)C(=O)O (configuration not stated) | inactive: -7.1%
CP(=O)(Nc1ccc(SC(F)(F)F)cc1)Oc1ccc(F)cc1 (configuration not stated) | inactive: 3.21%
Cc1c(C(c2ccc3c(c2)OCO3)c2c(C)n(C)n(-c3ccccc3)c2=O)c(=O)n(-c2ccccc2)n1C.O=[N+]([O-])c1cc([N+](=O)[O-])c(O)c([N+](=O)[O-])c1 | inactive: 2.94%
O=[N+]([O-])c1cc([N+](=O)[O-])c(NCC2CCS(=O)(=O)C2)c([N+](=O)[O-])c1 (configuration not stated) | inactive: 24.7%
Cc1cc(-c2cccc3ccccc23)c(C)cn1.O=[N+]([O-])c1cc([N+](=O)[O-])c(O)c([N+](=O)[O-])c1 | inactive: 22.5%
O=[N+]([O-])c1ccc(OP2(=O)COCCO2)cc1 (configuration not stated) | inactive: -4.83%
COc1ccc(NP(C)(=O)Oc2ccccc2OC)cc1 (configuration not stated) | inactive: -3.18%
CN(C)CCOC(=O)C(O)(c1ccccc1)C1CCCCC1 (configuration not stated) | inactive: 7.6%
COc1ccc(OP(C)(=O)Nc2cccc(Br)c2)cc1 (configuration not stated) | inactive: 0%
